From paper PMC6203815

Molecular target: 85RF45.1 Fab
Test: BLI
Conditions: Fab concentrations of 250, 125, 62.5, and 31.3 nM

| Substance | pKd |
| --- | --- |
| Pfs48/45 6C domain (NF54) I349V | 8.77 |
| Pfs48/45 6C domain (NF54) Q355L | 7.77 |

pKd: −log10 of the molar value.
